The values below come from US20200283532A1, “TUMOUR-TARGETING PEPTIDE VARIANTS” (Cancer Research Technology Limited, priority 2017, published 2020).

Amino acid sequences for entries named in this document (tags omitted). Residues count along the entry.
UniProt P06756, 891-1048 limits assumed, stated change not applied: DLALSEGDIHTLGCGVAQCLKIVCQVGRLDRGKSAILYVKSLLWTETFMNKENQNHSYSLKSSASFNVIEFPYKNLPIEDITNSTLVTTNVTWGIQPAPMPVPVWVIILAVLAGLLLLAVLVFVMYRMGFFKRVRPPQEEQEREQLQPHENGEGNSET
UniProt P06756, 31-889 limits assumed, stated change not applied: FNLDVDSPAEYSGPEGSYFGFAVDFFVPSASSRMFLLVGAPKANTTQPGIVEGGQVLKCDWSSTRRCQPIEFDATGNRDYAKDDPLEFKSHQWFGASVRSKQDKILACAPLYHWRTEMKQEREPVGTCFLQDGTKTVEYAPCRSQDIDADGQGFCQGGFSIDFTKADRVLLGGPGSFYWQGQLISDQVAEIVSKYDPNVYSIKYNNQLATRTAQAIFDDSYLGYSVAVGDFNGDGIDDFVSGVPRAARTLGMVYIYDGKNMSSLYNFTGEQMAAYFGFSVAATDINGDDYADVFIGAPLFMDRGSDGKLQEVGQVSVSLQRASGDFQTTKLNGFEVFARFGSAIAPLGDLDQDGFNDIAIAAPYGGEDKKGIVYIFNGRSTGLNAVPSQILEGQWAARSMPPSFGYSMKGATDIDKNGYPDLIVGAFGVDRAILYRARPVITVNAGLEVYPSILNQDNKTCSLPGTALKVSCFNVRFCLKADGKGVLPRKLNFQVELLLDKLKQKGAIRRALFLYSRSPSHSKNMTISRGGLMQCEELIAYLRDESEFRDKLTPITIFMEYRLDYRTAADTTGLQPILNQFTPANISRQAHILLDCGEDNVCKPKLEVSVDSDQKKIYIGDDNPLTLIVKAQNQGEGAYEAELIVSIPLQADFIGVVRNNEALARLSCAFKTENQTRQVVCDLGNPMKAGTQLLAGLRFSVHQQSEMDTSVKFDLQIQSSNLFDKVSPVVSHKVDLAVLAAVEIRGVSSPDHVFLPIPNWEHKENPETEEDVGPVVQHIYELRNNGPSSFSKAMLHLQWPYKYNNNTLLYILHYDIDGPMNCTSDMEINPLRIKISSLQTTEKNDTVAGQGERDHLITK
UniProt P18564, 22-788, stated change not applied: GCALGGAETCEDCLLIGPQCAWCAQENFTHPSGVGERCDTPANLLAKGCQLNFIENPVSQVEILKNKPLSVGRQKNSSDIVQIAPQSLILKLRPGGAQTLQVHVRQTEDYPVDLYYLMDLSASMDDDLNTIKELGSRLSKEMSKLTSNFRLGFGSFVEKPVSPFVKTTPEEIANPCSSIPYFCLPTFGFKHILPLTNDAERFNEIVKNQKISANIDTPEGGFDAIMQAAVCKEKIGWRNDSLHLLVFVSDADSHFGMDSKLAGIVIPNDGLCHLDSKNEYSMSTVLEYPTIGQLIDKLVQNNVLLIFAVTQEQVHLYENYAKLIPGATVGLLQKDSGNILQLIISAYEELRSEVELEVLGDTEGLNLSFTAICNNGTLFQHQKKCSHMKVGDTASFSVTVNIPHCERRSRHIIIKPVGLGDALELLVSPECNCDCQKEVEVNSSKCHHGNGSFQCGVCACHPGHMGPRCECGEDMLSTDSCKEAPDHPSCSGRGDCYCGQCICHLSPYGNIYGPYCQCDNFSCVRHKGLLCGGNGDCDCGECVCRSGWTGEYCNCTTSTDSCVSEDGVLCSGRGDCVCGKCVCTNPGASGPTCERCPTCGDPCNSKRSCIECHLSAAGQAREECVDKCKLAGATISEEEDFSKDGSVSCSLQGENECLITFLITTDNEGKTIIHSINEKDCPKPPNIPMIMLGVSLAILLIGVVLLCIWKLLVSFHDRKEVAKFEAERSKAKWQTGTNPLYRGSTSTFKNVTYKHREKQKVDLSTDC

Assay [1] has as its target T1, αvβ6 integrin (A375Pβ6 cells) (Homo sapiens, UniProt P06756+P18564).
T1 construct: expressed in transfected cells; host or cells: A375Pβ6 (transduced A375P melanoma cells; control line A375Ppuro)
Briefly: Level of binding of biotinylated peptides to A375Pβ6 cells by flow cytometry. In general terms: In flow cytometry, cells or beads pass a laser one at a time.

For assay [2], the system named is A375Pβ6 cells. It is filed as cell-based. As for the experimental part:
Cells were trypsinised and resuspended into DMEM (serum-free media) to prepare a cell suspension of 4×10^6 cells/ml. From this point on everything was kept on ice. 50 μl of cell suspension were aliquoted into each flow tube. Peptides were diluted in ice-cold serum-free media to 200 nM giving the final concentration of 100 nM when 50 μl was added to the cell samples. The peptides were left on ice for 15 minutes then washed twice with flow media and centrifuged for 3 minutes at 1200 rpm in between each wash step. Mouse anti-biotin (50 μl at 1:200) was added to each sample for 15 minutes, then wash steps were repeated. […] Samples were examined on an Imagestream X Mark II (Amnis, Merck) Imagestream images were assessed for internalisation compared with the 0 minute samples using on board software. […]
Cells were prepared as above except that no detergent was added prior to detecting the biotin with antibodies. Samples were analysed on a FACScalibur (Bekton-Dickinson) cytometer.
To assess ability to be internalized by cells at 37° C. […] Imagestream® takes a fluorescence image of each cell (FIG. 2C) enabling image analysis of the fluorescence on the surface versus the intracellular compartment. […] For flow cytometry we monitored the loss of surface expression as the peptides were internalized.

`CC(C)C[C@H](NC(=O)[C@H](CC(=O)O)NC(=O)CNC(=O)[C@H](CCCNC(=N)N)NC(=O)[C@H](CC(C)C)NC(=O)[C@H](CC(N)=O)NC(=O)[C@@H]1CCCN1C(=O)[C@@H](NC(=O)[C@H](CCCCNC(=O)CCCC[C@@H]1SC[C@@H]2NC(=O)N[C@@H]21)NC(=O)[C@H](CC(N)=O)NC(=O)CN(CCN(CCN(CC(=O)O)CC(=O)O)CC(=O)O)CC(=O)O)C(C)C)C(=O)N[C@@H](CCC(N)=O)C(=O)N[C@H](C(=O)N[C@@H](CC(C)C)C(=O)N[C@@H](C)C(=O)N[C@@H](CCC(N)=O)C(=O)N[C@@H](CCCCN)C(=O)N[C@H](C(=O)N[C@@H](C)C(=O)N[C@@H](CCCNC(=N)N)C(=O)N[C@H](C(N)=O)[C@@H](C)O)C(C)C)C(C)C` [Peptide 24]: the “A) Affinity: mean activity relative to biotinylated A20FMDV2 (100 nM)” value in assay [1] amounted to 1.19 ± 0.30. The “B) Internalisation: mean % internalisation at 45 min relative to biotinylated A20FMDV2 (100 nM)” value in assay [2] is reported as 0.98 ± 0.12.
